Record: PubChem BioAssay AID504761 (Drosophila RNAi Screening Center, 2011)
Test: 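Insect host genes that dengue virus relies on to spread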 (primary screen). Cell system: D.Mel-2 cells from Drosophila. Reagent: long dsRNA against Drosophila genes. Conditions: infection with dengue virus type 2; dose and infection time not stated. Read-out: 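Cells stained for dengue envelope protein and imaged; percent of infected cells per well on duplicate plates, ranked by infection, with stained nuclei counted for cell number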. Direction: infection score: higher = more virus-infected cells; cell count: higher = more cells in the well. Hit rule: 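Low infection ranks in the two replicates (chance level up to 0.065) followed by a retest with a 1.5-fold or larger significant decrease, p below 0.05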. Calls: active = confirmed: knock-down lowers infection; inactive = not picked or not confirmed.
In all, the deposit lists about 22,000 reagents; shown is a random part of those with a known target gene and a result. Over the whole deposit, 116 (0.52%) got an active call. 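Calls depend on retest data that are not deposited; infection was ranked per plate without normalising between plates; the unit of the infection score is not given.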 Raw values vary from plate to plate and are shown uncorrected. Unmarked entries are inactive. The numbers tell different reagents against one gene apart. Names joined by + are all predicted targets of the reagent. Not given: the amount of reagent, the time to read-out.

no.	target	reagent no.	infection score, replicate 1	infection score, replicate 2	cell count, replicate 1	cell count, replicate 2
1	Ten-a (Tenascin accessory)	1	1.74	4.28	6027	5959
2	Ten-a (Tenascin accessory)	2	6.65	8.73	6471	6723
3	Ten-a (Tenascin accessory)	3	17.6	27.2	4941	5903
4	Ten-a (Tenascin accessory)	4	24.1	21.6	2876	5614
5	Ten-a (Tenascin accessory)	5	16.9	13.3	6134	6132
6	Ten-a (Tenascin accessory)	6	7.18	11.7	6981	7161
7	Ten-a (Tenascin accessory)	7	0.84	1.55	6412	6923
8	Ten-a (Tenascin accessory)	8	2.65	6.21	5933	5846
9	Ten-a (Tenascin accessory)	9		0.27	298	375
10	asp (abnormal spindle)	1	3.15	5.15	7048	6370
11	18w (18 wheeler)	1			325	375
12	18w (18 wheeler)	2	16.1	5.9	6255	6289

Looked up above.
Ten-a (Tenascin accessory) #9, cell count, replicate 1 = 298
For “infection score, replicate 1”, Ten-a (Tenascin accessory) #7 shows 0.84

Further results follow.
no.	target	reagent no.	infection score, replicate 1	infection score, replicate 2	cell count, replicate 1	cell count, replicate 2
13	CG42809 + CG42810	1	3.7	3.98	6763	6301
14	CG42809 + CG42810	2	4.62	7.22	6847	6755
15	hoe1 (hoepel1)	1	4.14	2.91	5577	5799
16	hoe1 (hoepel1)	2			509	533
17	hoe1 (hoepel1)	3			504	456
18	CG13325	1	20.9	23.8	6242	5736
19	CG13325	2	1.82	1.62	7086	6360
20	CG13043	1	1.45	5.13	6006	6237
21	CG13043	2	2.28	3.01	6312	6706
22	CG34125	1	0.57	1.9	6641	5792
23	CG14642	1	11.3	25.9	5798	5221
